Among the data in ChEMBL document CHEMBL1155193, “Acyloxymethyl esterification of nodularin-R and microcystin-LA produces inactive protoxins that become reactivated and produce apoptosis inside intact cells” (J Med Chem, 2009) are CC50 values, retold here.

This data set concerns Hepatocyte. The experiment in a line: Cytotoxicity against Wistar rat hepatocytes harboring transporter Oatp1b2 after 90 mins by differential interference contrast microscopy.

Molecule `C=C1C(=O)N[C@H](C)C(=O)N[C@@H](CC(C)C)C(=O)N[C@@H](C(=O)O)[C@H](C)C(=O)N[C@@H](CCCNC(=N)N)C(=O)N[C@@H](/C=C/C(C)=C/[C@H](C)[C@H](Cc2ccccc2)OC)[C@H](C)C(=O)N[C@@H](C(=O)O)CCC(=O)N1C` [MICROCYSTIN-LR] gave a cytotoxic concentration (CC50) of 0.27 µM.
The molecule `C/C=C1/C(=O)N[C@@H](C(=O)O)[C@H](C)C(=O)N[C@@H](CCCNC(=N)N)C(=O)N[C@@H](/C=C/C(C)=C/[C@H](C)[C@H](Cc2ccccc2)OC)[C@H](C)C(=O)N[C@@H](C(=O)O)CCC(=O)N1C` [NODULARIN] registered a CC50 of 0.09 µM.
